Changes are numbered by the printed parent chain.
How the values were obtained:
[1] = molecular target: human Kv1.3 channel (human), P22001; assay: cell-based or functional assay
[2] = molecular target: T1, human Kv1.1 channel (human), Q09470; assay: cell-based or functional assay
T1 chain: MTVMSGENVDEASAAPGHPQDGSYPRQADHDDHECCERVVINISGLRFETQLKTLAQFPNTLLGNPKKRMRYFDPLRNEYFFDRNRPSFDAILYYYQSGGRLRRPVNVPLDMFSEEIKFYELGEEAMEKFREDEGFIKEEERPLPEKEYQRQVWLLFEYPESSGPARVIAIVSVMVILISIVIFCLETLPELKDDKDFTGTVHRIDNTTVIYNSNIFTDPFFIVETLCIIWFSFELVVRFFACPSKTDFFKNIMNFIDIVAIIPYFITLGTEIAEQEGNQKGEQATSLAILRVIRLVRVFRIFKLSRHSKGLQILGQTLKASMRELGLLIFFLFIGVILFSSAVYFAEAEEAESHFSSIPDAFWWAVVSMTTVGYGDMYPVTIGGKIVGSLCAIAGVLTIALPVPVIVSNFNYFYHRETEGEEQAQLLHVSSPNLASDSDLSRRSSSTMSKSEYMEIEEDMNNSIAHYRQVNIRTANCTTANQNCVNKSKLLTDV

B1: OSK1 Alanine Analog G22A (peptide)
peptide: GVIINVKCKISRQCLEPCKKAAMRFGKCMNGKCHCTPK
modifications: not checked
- IC50, Kv1.3 current block [1]: > 3 nM
- IC50, Kv1.1 current block [2]: > 3 nM

B2: OSK1 Alanine Analog N30A (peptide)
peptide: B1 peptide with A22G, N30A
modifications: not checked
- IC50, Kv1.1 current block [2]: > 3 nM

B3: OSK1 Alanine Analog R24A (peptide)
peptide: B1 peptide with A22G, R24A
modifications: not checked
- IC50, Kv1.3 current block [1]: > 3 nM

B4: OSK1 Arginine Analog M29R (peptide)
peptide: B1 peptide with A22G, M29R
modifications: not checked
- IC50, Kv1.3 current block [1]: 0.2 nM

B5: OSK1 analogue S11R (peptide)
peptide: B1 peptide with S11R, A22G
modifications: not checked
- Kv1.3 IC50, whole cell patch clamp ePhys [1]: 0.04 nM

B6: OSK1 Alanine Analog K27A (peptide)
peptide: B1 peptide with A22G, K27A
modifications: not checked
- IC50, Kv1.1 current block [2]: > 3 nM

From patent publication US20090305399A1
